US10273235B2, “Compositions and methods for inhibiting β-lactamase” (LegoChem Biosciences, Inc., priority 2015, dated 2019)
Values joined by “and” are separate entries in the source; they are usually repeats but may differ in a detail not shown here. Equal entries are not always repeated.

How the values were obtained:
Type in all cases: cell-based
K. pneumoniae 4006 = assay: BLI potentiation MIC, K. pneumoniae 4006 (SHV-12, CTX-M-15, TEM-1, OXA-9); details: BLI fixed 4 ug/ml; incubation 19 h
K. pneumoniae 101 = assay: BLI potentiation MIC, K. pneumoniae 101; details: BLI fixed 4 ug/ml; incubation 19 h
K. pneumoniae 7586 = assay: BLI potentiation MIC, K. pneumoniae 7586; details: BLI fixed 4 ug/ml; incubation 19 h
K. pneumoniae 5117 = assay: BLI potentiation MIC, K. pneumoniae 5117 (SHV-11, TEM-1); details: BLI fixed 4 ug/ml; incubation 19 h
K. pneumoniae 6839 = assay: BLI potentiation MIC, K. pneumoniae 6839 (SHV-11, SHV-12, DHA-1); details: BLI fixed 4 ug/ml; incubation 19 h
K. pneumoniae 89 = assay: BLI potentiation MIC, K. pneumoniae 89; details: BLI fixed 4 ug/ml; incubation 19 h
K. pneumoniae 6540 = assay: BLI potentiation MIC, K. pneumoniae 6540; details: BLI fixed 4 ug/ml; incubation 19 h
K. pneumoniae 23 = assay: BLI potentiation MIC, K. pneumoniae 23; details: BLI fixed 4 ug/ml; incubation 19 h
K. pneumoniae MP14 = assay: BLI potentiation MIC, K. pneumoniae MP14; details: BLI fixed 4 ug/ml; incubation 19 h; K. pneumoniae ATCC700603
K. pneumoniae 5576 = assay: BLI potentiation MIC, K. pneumoniae 5576 (SHV-11, CMY-2, DHA-1, TEM-1); details: BLI fixed 4 ug/ml; incubation 19 h
K. pneumoniae NDM-506 = assay: BLI potentiation MIC, K. pneumoniae NDM-506; details: BLI fixed 4 ug/ml, incubation 19 h

SMILES: NCCONC(=O)[C@@H]1CC[C@@H]2CN1C(=O)N2OS(=O)(=O)O [OP-595]
- MIC of LCB10-0200 with BLI (K. pneumoniae 4006): <0.03125 μg/mL and <0.0312 μg/mL
- MIC of Meropenem with BLI (K. pneumoniae 4006): <0.0312 mg/L
- MIC of LCB10-0200 with BLI (K. pneumoniae 101): <0.03125 μg/mL and <0.0312 μg/mL
- MIC of Meropenem with BLI (K. pneumoniae 101): <0.0312 mg/L
- MIC of LCB10-0200 with BLI (K. pneumoniae 7586): <0.0312 μg/mL
- MIC of LCB10-0200 with BLI (K. pneumoniae 5117): <0.0312 μg/mL
- MIC of LCB10-0200 with BLI (K. pneumoniae 6839): <0.03125 μg/mL and <0.0312 μg/mL
- MIC of LCB10-0200 with BLI (K. pneumoniae 89): <0.0312 μg/mL
- MIC of LCB10-0200 with BLI (K. pneumoniae 6540): <0.03125 μg/mL and <0.0312 μg/mL
- MIC of LCB10-0200 with BLI (K. pneumoniae 23): <0.0312 μg/mL
- MIC of Meropenem with BLI (K. pneumoniae MP14): 0.125 mg/L
- MIC of LCB10-0200 with BLI (K. pneumoniae 5576): <0.03125 μg/mL and <0.0312 μg/mL
- MIC of Meropenem with BLI (K. pneumoniae 5576): <0.0312 mg/L
- MIC of LCB10-0200 with BLI (K. pneumoniae NDM-506; Meropenem, K. pneumoniae MP14): 0.125 μg/mL
- MIC of LCB10-0200 with BLI (K. pneumoniae NDM-506; P. aeruginosa ARC3506): >64 μg/mL
